Record: PubChem BioAssay AID624099 (ICCB-Longwood, 2012)
Test: 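Host factors E2 relies on to silence an HPV18 LCR reporter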 (primary screen). Cells: human C33A cervical carcinoma cells (HPV-negative) stably expressing BPV1 E2 and an HPV18 LCR luciferase reporter. Knock-down reagent: siRNA pool against human genes, 40 nM. Duration: 72 h. Read-out: 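Per-well luciferase luminescence, z-scored on each plate against the plate mean and SD with control wells left out, then averaged across three replicate plates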. Reading the numbers: mean z-score and z-score: higher = stronger reporter signal, weaker E2 silencing. Hit rule: 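Mean z ≥ 2 together with z ≥ 2 in two or more of the three replicates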.
This is an unselected part of about 21,000 reagents tested. Over the whole deposit, 497 (2.4%) got an active call. 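Higher z means weaker E2 silencing; only reporter increases were scored, and knock-downs that hurt cell survival may mask genuine repressor factors.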

no.	Gene	mean z-score	z-score, replicate A	z-score, replicate B	z-score, replicate C	Call
1	SLIT3	1.11	1.29	0.91	1.12	inactive
2	TBC1D3P1-DHX40P1	0.37	0.36	0.36	0.38	inactive
3	RNF43	-1.01	-0.92	-1.1	-1.02	inactive
4	SLC44A2	-1.39	-1.42	-1.37	-1.38	inactive
5	SHISA2	0.55	0.34	0.96	0.37	inactive
6	IGHV3OR16-17	0.99	1.1	0.86	1.02	inactive
7	COMMD2	-1.04	-1.05	-0.8	-1.27	inactive
8	LOC391347 (retired record)	0.59	0.49	0.5	0.78	inactive
9	AKTIP	-0.12	-0.66	0.13	0.16	inactive
10	TIMM22	-0.21	0.09	-0.64	-0.07	inactive
11	RGCC	-0.21	-0.09	-0.42	-0.11	inactive
12	LOC388628 (retired record)	-0.55	-0.45	-0.78	-0.43	inactive
13	SUCNR1	-1.26	-1.06	-1.47	-1.24	inactive
14	OR1D5	1.31	1.02	1.18	1.73	inactive
15	SYNPR	-0.71	-0.32	-0.81	-0.99	inactive
16	ATP6V0A2	1.81	1.67	1.4	2.37	inactive
17	ENOSF1	1.17	1.05	1.08	1.37	inactive
18	TCOF1	0.7	0.78	0.69	0.64	inactive
19	FN3KRP	-1.21	-1.27	-1.11	-1.26	inactive
20	LINC01098	1	0.92	1.08		inactive
21	NUDT8	-1.34	-0.97	-1.18	-1.86	inactive
22	ATXN3L	-0.23	-0.16	-0.28	-0.26	inactive
23	RPL13P12	-2.98	-2.68	-3.43	-2.83	inactive
24	SLC35E1	-0.11	-0.55	0.33	-0.1	inactive
25	AVPR1B	0.69	1.03	0.4	0.63	inactive
26	ABCA11P	-0.23	-0.16	-0.26	-0.27	inactive
27	ANGPTL8	-1.72	-2.15	-1.62	-1.37	inactive
28	HS6ST1	-0.2	-0.12	-0.13	-0.35	inactive
29	KLC2	-1.14	-1.26	-1.08	-1.08	inactive
30	PLBD2	1.12	0.97	1.13	1.27	inactive
31	DAZ3	0.3	0.42	0.36	0.11	inactive
32	UGT2B10	-0.95	-1.01	-0.98	-0.85	inactive

Next part (5 carried over from the part before).
no.	Gene	mean z-score	z-score, replicate A	z-score, replicate B	z-score, replicate C	Call
28	HS6ST1	-0.2	-0.12	-0.13	-0.35	inactive
29	KLC2	-1.14	-1.26	-1.08	-1.08	inactive
30	PLBD2	1.12	0.97	1.13	1.27	inactive
31	DAZ3	0.3	0.42	0.36	0.11	inactive
32	UGT2B10	-0.95	-1.01	-0.98	-0.85	inactive
33	NDRG1	-0.71	-0.76	-0.62	-0.74	inactive
34	POLR3D	0.35	0.23	0.3	0.51	inactive
35	RBM25	-1.47	-1.14	-1.53	-1.73	inactive
36	MED22	-1.51	-1.35	-1.64	-1.55	inactive
37	SOX14	0.32	0.3	0.36	0.29	inactive
38	RRN3	0.49	0.3	0.43	0.76	inactive
39	GCDH	1.52	1.24	1.85	1.47	inactive
40	NAPG	-0.49	-0.67	-0.35	-0.45	inactive
41	OR2A4	-0.59	-0.58	-0.63	-0.57	inactive
42	C1orf50	-0.53	-0.51	-0.51	-0.56	inactive
43	ANKRD2	0.42	0.53	0.33	0.4	inactive
44	TRPM4	-1.28	-1.18	-1.32	-1.33	inactive
45	KCNE2	0.22	0.16	0.21	0.29	inactive
46	BCL11B	1.55	1.54	1.62	1.48	inactive
47	ERI1	-0.48	-0.62	-0.15	-0.66	inactive
48	ATP2C1	0.49	0.24	0.64	0.59	inactive
49	LSAMP	-1.67	-1.72	-1.72	-1.58	inactive
50	GVQW3	0.66	0.31	0.76	0.9	inactive
51	LOC402282 (retired record)	-1.16	-1.08	-1.03	-1.36	inactive
52	ZNF771	1.47	1.77	1.23	1.4	inactive
53	DNAJC21	-0.03	0.22	-0.16	-0.14	inactive
54	SPATA31C2	-1.09	-1.18	-1.01	-1.09	inactive
55	GTF3C1	0.45	0.39	0.35	0.62	inactive
56	LOC389242 (retired record)	0.48	0.06	1.27	0.12	inactive
57	GOLIM4	0.02	-0.31	-0.05	0.42	inactive
